Results as given in US7033509B2 (priority 2000, dated 2006).

System: fungi on the surface of potato
Experiment: Potato (Sanitizing Unit), total fungi on surface
Format: cell-based
Details: Sanitizing Unit dip 1 min, 30 ppm, vs undipped control

chlorine
Fungal population per cm^2 Log10 reduction: 1.46 c log10 units
